The values below come from publication PMC6689899, “An essential bifunctional enzyme in Mycobacterium tuberculosis for itaconate dissimilation and leucine catabolism” (Proceedings of the National Academy of Sciences of the …, 2019).

Holding throughout (assay): purified protein
In data set [1] the test system is CC(=O)SCCNC(=O)CCNC(=O)[C@H](O)C(C)(C)COP(=O)(O)OP(=O)(O)OC[C@H]1O[C@@H](n2cnc3c(N)ncnc32)[C@H](O)[C@@H]1OP(=O)(O)O.
Data set [2] relates to CCC(=O)SCCNC(=O)CCNC(=O)[C@H](O)C(C)(C)COP(=O)(O)OP(=O)(O)OC[C@H]1O[C@@H](n2cnc3c(N)ncnc32)[C@H](O)[C@@H]1OP(=O)(O)O.
Data set [3] relates to CC(C)(COP(=O)(O)OP(=O)(O)OC[C@H]1O[C@@H](n2cnc3c(N)ncnc32)[C@H](O)[C@@H]1OP(=O)(O)O)[C@@H](O)C(=O)NCCC(=O)NCCSC(=O)C[C@](C)(O)C(=O)O.
For data set [4], the system named is CC(C)(COP(=O)(O)OP(=O)(O)OC[C@H]1O[C@@H](n2cnc3c(N)ncnc32)[C@H](O)[C@@H]1OP(=O)(O)O)[C@@H](O)C(=O)NCCC(=O)NCCSC(=O)C[C@](C)(O)CC(=O)O.

The term Km denotes the concentration of substrate that gives half-maximal velocity. By kcat/Km is commonly meant the turnover number divided by the Michaelis constant.

Consider “Rv2498c (Mycobacterium tuberculosis H37Rv)”, for which the Michaelis-Menten constant (Km) was 2,124 ± 200 µM in data set [1], 729 ± 163 µM in data set [2], 75 ± 19 µM in data set [3] and 90 ± 22 µM in data set [4]. The kcat/Km was 69 M⁻¹ s⁻¹ in data set [1], 110 M⁻¹ s⁻¹ in data set [2], 230000 M⁻¹ s⁻¹ in data set [3] and 390000 M⁻¹ s⁻¹ in data set [4].
